# Reference: paper PMC5355980
# For at least one entry, the source does not settle the construct or the ends of the probe.
# Tested on: LuxR (LuxR-annotated transcriptional regulator)
# Assay: EMSA
# Conditions: 20 mM Tris-HCl pH 7.4, 50 mM KCl, 1 mM EDTA, 1 mM DTT, 5% glycerol, 100 ug/mL BSA, supplemented with 10 uM oxo-C12-HSL, 50 ng DNA, 3-30 ng His-LuxR, recombinant protein, residues 1-1024, protein details: N-terminal His (pTrcHis TOPO), probe letters rebuilt from the primers and the genome
sequence,measurement,setting,value
"GGATGAAGTAAAGATATTAGCTAGGGTTATCAAAATGATATAAGTTATAAAGCTTTAAAAATTAGCTCTCATTTTTGTCGTTATTGTTTGAAAAATATAGTTTTTTAGAGAAAATTATTATTTTTTTTGTCATTTTTGATAATATTAAAAAGAAAGGGTTTACATATTAATCATTTTTTACTATAATAAAAGTGATAAGAACTAGATAGTTGTTGTGTTACAACAGTACAATTGAGCTAGCCTTGTCCTTGTTGTGTTAACTTTATTTTTAAAATAAGGTTAAAAATAAACGACTCGTGTTCTTATCAGTTACTTATTAGATAAGGAGGTAAACC (double strand) [sagA promoter probe, 334 bp]",binding result,10 uM oxo-C12-HSL,binds
same,binding result,no oxo-C12-HSL,binds
